Reference: US7374875B2, “Peptides having affinity for the gp120 viral protein and use thereof” (priority 2001, dated 2008)

Columns and labels:
gp120LAI = target: T1, gp120LAI (Human immunodeficiency virus type 1 group M subtype B, UniProt P03377); assay: Competition indirect ELISA, inhibition of rgp120LAI-soluble CD4 interaction
T1 construct: protein gp120LAI and gp120HXB2
Description: (§1) The inhibition of the rgp120-CD4 interaction was measured by indirect ELISA (Enzyme Linked ImmunoSorbent Assay). 50 ng per well of anti-gp120 antibody, D7324, were immobilized on a 96-well plate (Maxisorb, Nunc) overnight at 4° C. After passivation with bovine serum albumin and three washes with the washing buffer (10 mM Tris, pH 7.8, 0.05% Tween 20), 15 ng of rgp120HXB2 per well were added. Various concentrations of competitors were then added, after three washes, and also 0.4 ng of soluble CD4 per well. 100% controls containing only soluble CD4 were prepared. After overnight incubation at 4° C. and three washes, 5 ng of mouse anti-CD4 antibody L120.3 were added per well, followed by a peroxidase-coupled goat anti-mouse IgG antibody (GAMPO). The revelation was carried out by adding 3,3′,5,5′-tetramethylbenzidine, a fluorescent substrate for peroxydase. […] The inhibition of the rgp120-CD4 interaction was calculated by reading the absorbance A at 450 nm. Controls without competitor made it possible to determine the absorbance A100% (absorbance in the absence of competitor). The percentage inhibition for each concentration of peptide of the present invention was calculated using the formula: percentage inhibition=100×(A100%−A)/A100%.
The assays were carried out in duplicate and the results were expressed as the mean of experimental duplicates.

gp120HXB2 [1] = target: T2, gp120HXB2 (Human immunodeficiency virus type 1 group M subtype B, UniProt P04578); assay: Competition indirect ELISA, inhibition of gp120HXB2-soluble CD4 interaction
T2 construct: the wild-type gp120 viral protein is concentrated and directly purified from the culture supernatant; signal peptide of the ecdysteroid glycosyltransferase of Autographa californica baculovirus (N); made in house; host or cells: Sf9 insect cells, recombinant baculovirus
Description: as §1
The assays were carried out in duplicate and the results were expressed as the mean of experimental duplicates. […]

[2] = system: recombinant viral protein gp120; assay: ELISA inhibition of CD4-gp120 interaction, gp120 strain not singled out
Description: The inhibition of the rgp120-CD4 interaction was measured by indirect ELISA (Enzyme Linked ImmunoSorbent Assay). 50 ng per well of anti-gp120 antibody, D7324, were immobilized on a 96-well plate (Maxisorb, Nunc) overnight at 4° C. After passivation with bovine serum albumin and three washes with the washing buffer (10 mM Tris, pH 7.8, 0.05% Tween 20), 15 ng of rgp120HXB2 per well were added. Various concentrations of competitors were then added, after three washes, and also 0.4 ng of soluble CD4 per well. 100% controls containing only soluble CD4 were prepared. After overnight incubation at 4° C. and three washes, 5 ng of mouse anti-CD4 antibody L120.3 were added per well, followed by a peroxidase-coupled goat anti-mouse IgG antibody (GAMPO). The revelation was carried out by adding 3,3′,5,5′-tetramethylbenzidine, a fluorescent substrate for peroxydase. The reaction was stopped after 30 minutes by adding 2M sulphuric acid. The inhibition of the rgp120-CD4 interaction was calculated by reading the absorbance A at 450 nm. Controls without competitor made it possible to determine the absorbance A100% (absorbance in the absence of competitor). The percentage inhibition for each concentration of peptide of the present invention was calculated using the formula: percentage inhibition=100×(A100%−A)/A100%.

gp120JRFL = assay: Surface plasmon resonance, immobilized biotinylated peptide, gp120JRFL injected; details: biotinylated peptide on streptavidin chip, 25° C., read-out: dissociation constant KD
Description: (§2) The surface plasmon resonance experiments were carried out with a Biacore 2000 system (Biacore, Uppsala, Sweden). The peptides to be tested were coupled to biotin (as described previously) and then immobilized on a chip to which streptavidin had been previously attached.
(§3) The streptavidin was immobilized on the chip as follows: the surface of the chip was first activated by injection of 50 μL of coupling agent provided by the constructor and able to form amide bonds: N-ethyl-N′-(dimethylaminopropyl)carbodiimide (EDC)/N-hydroxy-succinimide (NHS), 50/50; then, 20 μL of streptavidin, 0.2 mg.mL^−1 in 10 mM sodium acetate, pH 4.5, were injected at 5 μL.min^−1, followed by neutralization of the activated carboxylic groups with 2×20 μL of 1.0 M ethanolamine, pH 8.5. […] The dissociation constants are calculated from the kinetic constants determined by the Bia-evaluation 3.0 software.
In order to obtain a first evaluation of the affinity of the peptide of the present invention CD4M33 for the viral protein gp120, an analysis of biospecific interactions (described in Example 3), based on detection by surface plasmon resonance, was used. […] Solutions, of various recombinant gp120 proteins (gp120HXB2, gp120BAL and gp120JRFL) were then injected onto this matrix and a signal indicating a specific and high affinity association was then detected.

[3] = target: recombinant viral protein gp120; assay: Surface plasmon resonance, summary over recombinant gp120 proteins; details: read-out: Kd, surface plasmon resonance experiments
Description: as §2
as §3, with “8.5. The biotinylated molecules were then injected (10 μL.min^−1 in a 10 mM Hepes buffer containing 0.3 M NaCl, pH 7.4) onto three of the four lanes of the chip. On the first lane, CD4M9 (10^−7 M) was immobilized up to an RU (resonance unit) value of 100; the second lane was left unused (control); the third lane was covered with soluble CD4 (10^−7 M) up to a value of 450 RU; on the fourth lane, CD4M33 (10^−7 M) was immobilized at a value of 100 RU.” for “8.5.”

gp120HXB2 [4] = target: T2, gp120HXB2; assay: Surface plasmon resonance, gp120HXB2 binding to immobilized antibodies 48d and CG10 in presence of peptide; details: 1.5-fold and 20-fold molar excess of peptide
Source text: In order to evaluate the ability of the peptide of the present invention CD4M33 to induce conformational variations in the gp120 protein, characterized by the exposure of epitopes sensitive to neutralizing antibodies, the interaction of such human antibodies, 48d and CG10, with the HIV envelope in the presence of CD4M33 and, by comparison, of recombinant CD4, was undertaken using the surface plasmon resonance technique. The antibodies 48d and CG10 were covalently attached to the surface of the chips (biochip), and the solutions of gp120, in the absence of CD4 and in the presence of an excess of CD4 and of CD4M33, were injected.

`CC(C)C[C@@H]1NC(=O)CNC(=O)[C@H](CC(C)C)NC(=O)[C@H](CO)NC(=O)[C@H](CCCCN)NC(=O)[C@@H]2CSSC[C@@H](C(=O)N[C@H](C(N)=O)C(C)C)NC(=O)[C@H](C)NC(=O)[C@@H]3CSSC[C@H](NC(=O)[C@H](Cc4ccccc4)NC(=O)[C@H](C)NC(=O)[C@H](CC(C)C)NC(=O)[C@H](CC(N)=O)NC(=O)CCSSC[C@H](NC(=O)[C@H](CCCCN)NC(=O)CNC(=O)[C@H](CC(C)C)NC1=O)C(=O)N[C@@H](C)C(=O)NCC(=O)N[C@@H](CO)C(=O)N[C@@H](Cc1ccccc1)C(=O)N3)C(=O)N[C@@H](CCC(N)=O)C(=O)N[C@@H](CC(C)C)C(=O)N[C@@H](CCCNC(=N)N)C(=O)N2` [CD4M27] was tested, and the IC50 (gp120LAI) was 10 nM, the IC50 (gp120HXB2 [1]; IC50 (gp120HXB2), soluble recombinant CD4, standard deviation less than 30%) was 7 nM and the IC50 (gp120HXB2 [1]; IC50, inhibition of gp120HXB2-soluble CD4 interaction) was 7 nM.

`CC(C)C[C@@H]1NC(=O)CNC(=O)[C@H](CC(C)C)NC(=O)[C@H](CO)NC(=O)[C@H](CCCCN)NC(=O)[C@@H]2CSSC[C@@H](C(=O)N[C@H](C(N)=O)C(C)C)NC(=O)[C@H](C)NC(=O)[C@@H]3CSSC[C@H](NC(=O)[C@H](Cc4ccccc4)NC(=O)[C@H](Cc4c[nH]cn4)NC(=O)[C@H](CC(C)C)NC(=O)[C@H](CC(N)=O)NC(=O)CCSSC[C@H](NC(=O)[C@H](CCCCN)NC(=O)CNC(=O)[C@H](CC(C)C)NC1=O)C(=O)N[C@@H](C)C(=O)NCC(=O)N[C@@H](CO)C(=O)N[C@@H](C(c1ccccc1)c1ccccc1)C(=O)N3)C(=O)N[C@@H](CCC(N)=O)C(=O)N[C@@H](CC(C)C)C(=O)N[C@@H](CCCNC(=N)N)C(=O)N2` [CD4M33] was tested, and the “increase in the ability to inhibit the CD4-gp120 binding compared to CD4M9” value ([2]; gp120HXB2 and gp120LAI) was 1000 fold, the IC50 ([2]; summary over gp120HXB2 and gp120LAI) was 0.12 to 0.25 nM and the Kd (gp120JRFL) was 8.5 nM. For the same compound, the Kd [3] was 2.4 to 8 nM and the “interaction of gp120HXB2 with antibodies 48d and CG10 (in words)” value (gp120HXB2 [4]) was “strong interaction with the antibodies”.
